Measured values from several laboratories, pooled; numbers as filed in NIAID ChemDB.

Common to all: tests in culture; agent: HIV-1; measure: EC50

ECn: concentration that inhibits the pathogen or its effect by n%. Two numbers with a dash give a range or band. Rows are shuffled and stem from different studies.

COC(COc1ccc(-c2cnc(C)c([C@H](OC(C)(C)C)C(=O)O)c2N2CCC(C)(C)CC2)nc1)C(C)C ; cell line: MT-2 ; strain or isolate: NL4-3 ; read by: luminescence ; result: 0.0006 µM
CC(C)C1=C2[C@H]3CC[C@@H]4[C@@]5(C)CC[C@H](OC(=O)[C@H]6C[C@@H](C(=O)O)C6(C)C)C(C)(C)[C@@H]5CC[C@@]4(C)[C@]3(C)CC[C@@]2(CCNCc2ccc(N3CCN(C)CC3)cc2)CC1=O ; cell line: MT-2 ; strain or isolate: 92HT599 ; read by: p24 / ELISA ; result: <1 µM
CC1CC(C)CN(S(=O)(=O)c2ccccc2[N+](=O)[O-])C1 ; cell line: HeLa ; strain or isolate: 10076-4 ; read by: GFP / fluorescence ; result: 0.63 µM
CC(C)C1=C2[C@H]3CC[C@@H]4[C@@]5(C)CC[C@H](OC(=O)[C@H]6C[C@@H](C(=O)O)C6(C)C)C(C)(C)[C@@H]5CC[C@@]4(C)[C@]3(C)CC[C@@]2(CCNC(=O)c2ccc(CN3CCOCC3)cc2)CC1=O ; cell line: MT-2 ; strain or isolate: 92HT599 ; read by: p24 / ELISA ; result: <1 µM
Cc1ncc(-c2cnc(OCCOC(C)(C)C)c(F)c2)c(N2CCC(C)(C)CC2)c1[C@H](OC(C)(C)C)C(=O)O ; cell line: MT-2 ; strain or isolate: NL4-3 ; read by: luminescence ; result: 0.0019 µM
CC(C)C1=C2[C@H]3CC[C@@H]4[C@@]5(C)CC[C@H](OC(=O)[C@H]6C[C@@H](C(=O)O)C6(C)C)C(C)(C)[C@@H]5CC[C@@]4(C)[C@]3(C)CC[C@@]2([C@@H](O)CNCC(C)(C)NC(=O)C2CCNCC2)CC1=O ; cell line: MT-2 ; strain or isolate: 92HT599 ; read by: p24 / ELISA ; result: <1 µM
CCc1cc(C#N)cc(C(=O)c2cc(Cl)ccc2OCC(=O)Nc2ccc(S(N)(=O)=O)cc2C)c1 ; cell line: HeLa + HELA CD4+ ; mutations: RT-L100I ; strain or isolate: HXB2 ; read by: β-galactosidase ; result: <0.01 µM
CC(C)C1=C2[C@H]3CC[C@@H]4[C@@]5(C)CC[C@H](OC(=O)[C@H]6C[C@@H](C(=O)O)C6(C)C)C(C)(C)[C@@H]5CC[C@@]4(C)[C@]3(C)CC[C@@]2([C@@H](O)CNC(=O)c2ccc(Cl)cc2)CC1=O ; cell line: MT-2 ; strain or isolate: 92HT599 ; read by: p24 / ELISA ; result: <1 µM
Cc1cc(C#N)cc(C(=O)c2cc(Cl)ccc2OCC(=O)Nc2ccc(OCCCN3CC=CC3)cc2C)c1 ; cell line: HeLa + HELA CD4+ ; mutations: RT-V106I Y181C ; strain or isolate: HXB2 ; read by: β-galactosidase ; result: 0.011–0.1 µM
N#CC1=CC2Nc3ccccc3C2N(c2ccc([N+](=O)[O-])cc2)C1=O ; cell line: HeLa ; strain or isolate: 7324-1 ; read by: GFP / fluorescence ; result: 0.01 µM
CS(=O)(=O)Nc1ccc(NC(=O)COc2ccc(Cl)cc2C(=O)c2ccccc2)cc1 ; cell line: HeLa + HELA CD4+ ; mutations: RT-K103N ; strain or isolate: HXB2 ; read by: β-galactosidase ; result: 0.011–0.1 µM
COc1ccc(OCCN(C)c2ccc(-c3cnc(C)c([C@H](OC(C)(C)C)C(=O)O)c3N3CCC(C)(C)CC3)cn2)cc1 ; cell line: MT-2 ; strain or isolate: NL4-3 ; read by: luminescence ; result: 0.002 µM
Cc1cc(S(N)(=O)=O)ccc1NC(=O)COc1ccc(Cl)cc1C(=O)c1cc(C#N)cc(C#N)c1 ; cell line: MT-4 ; strain or isolate: IIIB ; read by: cytopathic effect / propidium iodide ; result: <0.01 µM
Cc1ncc(-c2cnc(OCC(C)(F)F)c(F)c2)c(N2CCC(C)(C)CC2)c1[C@H](OC(C)(C)C)C(=O)O ; cell line: MT-2 ; strain or isolate: NL4-3 ; read by: luminescence ; result: 0.0029 µM
Cc1cc(C#N)cc(C(=O)c2cc(Cl)ccc2OCC(=O)Nc2cnc(S(N)(=O)=O)cc2C)c1 ; cell line: HeLa + HELA CD4+ ; mutations: RT-K103N Y181C ; strain or isolate: HXB2 (RT-K103N Y181C) Recombinant ; read by: β-galactosidase ; result: <0.01 µM
Cc1ncc(-c2ccc(OCCc3ccccn3)nc2)c(N2CCC(C)(C)CC2)c1[C@H](OC(C)(C)C)C(=O)O ; cell line: MT-2 ; strain or isolate: NL4-3 ; read by: luminescence ; result: 0.0009 µM
Cc1cc(N2CCS(=O)CC2)ccc1NC(=O)COc1ccc(Cl)cc1C(=O)c1cccs1 ; cell line: MT-4 ; strain or isolate: IIIB ; read by: cytopathic effect / propidium iodide ; result: <0.01 µM
CC(C)C1=C2[C@H]3CC[C@@H]4[C@@]5(C)CC[C@H](OC(=O)[C@H]6C[C@@H](C(=O)O)C6(C)C)C(C)(C)[C@@H]5CC[C@@]4(C)[C@]3(C)CC[C@@]2([C@@H](O)CNC(=O)C2(NC(=O)c3ccc(Cl)cc3)CCCC2)CC1=O ; cell line: MT-2 ; strain or isolate: 92HT599 ; read by: p24 / ELISA ; result: <1 µM
Cc1ncc(-c2cnc(OCC3CCN(C)CC3)c(F)c2)c(N2CCC(C)(C)CC2)c1[C@H](OC(C)(C)C)C(=O)O ; cell line: MT-2 ; strain or isolate: NL4-3 ; read by: luminescence ; result: 0.0116 µM
Cc1ccc(C(=O)NC(C)(C)CNCC[C@@]23CC[C@]4(C)[C@H](CC[C@@H]5[C@@]6(C)CC[C@H](OC(=O)[C@H]7C[C@@H](C(=O)O)C7(C)C)C(C)(C)[C@@H]6CC[C@]54C)C2=C(C(C)C)C(=O)C3)cc1 ; cell line: MT-2 ; strain or isolate: 92HT599 ; read by: p24 / ELISA ; result: <1 µM
Cc1ncc(-c2ccc(OCC3CCOCC3)cn2)c(N2CCC(C)(C)CC2)c1[C@H](OC(C)(C)C)C(=O)O ; cell line: MT-2 ; strain or isolate: NL4-3 ; read by: luminescence ; result: 0.0026 µM
Cc1cc(S(N)(=O)=O)ccc1NC(=O)COc1ccc(Cl)cc1C(=O)c1cc(Cl)cc(C#N)c1 ; cell line: HeLa + HELA CD4+ ; mutations: RT-V106I ; strain or isolate: HXB2 ; read by: β-galactosidase ; result: <0.01 µM